Consider 1 substance from patent US12258540B2, “Environmentally compatible detergents for inactivation of lipid-enveloped viruses” (TAKEDA PHARMACEUTICAL COMPANY LIMITED, priority 2017, dated 2025).

This test concerns bovine viral diarrhea virus (BVDV). Conditions: single detergent 0.09%-0.11%, buffer containing HSA, 14° C.±1° C., FIG. 12A.

“4-tert-octylbenzyl alcohol polyethoxylate”: the “inactivation kinetics compared to Triton X-100, BVDV” value is reported as “same inactivation kinetics as Triton X-100”.
